Anti-infective test results gathered from many reports (values: NIAID ChemDB through PubChem).

Shared fields: target-level tests; agent: HIV-1; target: Reverse transcriptase; read-out: IC50

Conditions beyond the fields shown may differ between rows. Blank or dashed fields: not listed here. ICn: concentration for n% inhibition. Two numbers with a dash give a range or band.

SMILES	strain	mutations	method	value
CCc1ccc(-n2c(Br)nnc2SCC(=O)Nc2ccc(C(=O)N3CCCCC3CO)cc2Cl)c2ccccc12			nucleotide incorporation / radiometric	<0.05 µM
Oc1cc2c(cc1O)CN(c1nn3c(C4CC4)nnc3c3ccccc13)CC2	KER2008		RT activity / fluorescence	2.04 µM
CCN1c2ncc(CCOc3ccc4cc(C(=O)NN)ccc4c3)cc2C(=O)N(C)c2cccnc21		RT-Y188L	nucleotide incorporation / radiometric	>1 µM
O=C(CSc1nnc(Br)n1-c1ccc(C2CC2)cc1OC(F)(F)F)Nc1ccc(S(=O)(=O)O)cc1Cl		RT-Y181C	nucleotide incorporation / radiometric	0.05–0.1 µM
CC(C)(C)c1ccc(-n2nnnc2SCC(=O)Nc2ccc(C#CCCCO)cc2Cl)c(Cl)c1		RT-K103 Y181C	PicoGreen / fluorescence	<1 µM
c1cnc2c(c1)CN(c1nn3c(C4CC4)nnc3c3ccccc13)CC2	KER2008		RT activity / fluorescence	2.9 µM
CCc1ccc(-n2c(Br)nnc2SCC(=O)Nc2ccc(C(=O)O)cc2Cl)c2ccccc12			nucleotide incorporation / radiometric	<0.05 µM
CCN1c2ncc(CCOc3ccc(NC(=O)CC(C)(C)C(=O)O)cc3C)cc2C(=O)N(C)c2cccnc21	IIIB	RT-K103N Y181C	nucleotide incorporation / radiometric	>0.1 µM
Cc1ccc2c(c1)CCN(c1nn3c(C4CC4)nnc3c3ccccc13)C2	KER2008		RT activity / fluorescence	0.58 µM
CC(C)c1ccc(-n2nnnc2SCC(=O)Nc2ccc(C#CC(C)(C)C(=O)O)cc2Cl)c(Cl)c1		RT-K103 Y181C	PicoGreen / fluorescence	<1 µM
CCN1c2ncc(CCOc3ccc(-c4ccc(Cl)c(CC(=O)O)c4)cc3C)cc2C(=O)N(C)c2cccnc21	IIIB		nucleotide incorporation / radiometric	<0.05 µM
CC(C)(C)c1ccc(-n2nnnc2SCC(=O)Nc2ccc(S(=O)(=O)NCCc3ccccc3)cc2Cl)c(Cl)c1	WT		PicoGreen / fluorescence	<1 µM
Cc1ccc2c(C)ccc(-n3c(Br)nnc3SCC(=O)Nc3ccc(S(N)(=O)=O)cc3Br)c2c1		RT-Y188L	nucleotide incorporation / radiometric	0.05–0.1 µM
CCN1c2ncc(CCOc3ccc(/C=C(\C)C(=O)O)c4ccccc34)cc2C(=O)N(C)c2ccc(C)nc21		RT-V106A	nucleotide incorporation / radiometric	>1 µM
CC(C)(C#Cc1ccc(NC(=O)CSc2nnnn2-c2cc(Br)ccc2Cl)c(Cl)c1)NC(=O)c1cc[n+]([O-])cc1	WT		PicoGreen / fluorescence	<1 µM
Cc1cc(S(N)(=O)=O)ccc1NC(=O)CSc1nnc(C(F)F)n1-c1cccc2c(C#N)cccc12		RT-Y181C	nucleotide incorporation / radiometric	>0.1 µM
Cc1ccc(-n2nncc2SCC(=O)Nc2ccc(-c3ccc(CC(=O)O)cc3)cc2Cl)c(Cl)c1	WT		PicoGreen / fluorescence	<1 µM
Cc1cc(C2CC2)c2ccccc2c1-n1c(Br)nnc1SCC(=O)Nc1ccc(S(N)(=O)=O)cc1Cl		RT-Y188L	nucleotide incorporation / radiometric	0.05–0.1 µM
CCN1c2ncc(CCOc3ccc(C(=O)Nc4ccccc4C(=O)O)cc3C)cc2C(=O)N(C)c2cccnc21	IIIB	RT-K103N Y181C	nucleotide incorporation / radiometric	>0.1 µM
COc1ccc2c(c1)CCN(c1nn3c(C)nnc3c3ccccc13)C2	KER2008		RT activity / fluorescence	5.18 µM
CC(C)(C#Cc1ccc(NC(=O)CSc2nnnn2-c2ccc(C3CC3)cc2Cl)c(Cl)c1)C(=O)NCCCN1CCCC1=O	WT		PicoGreen / fluorescence	<1 µM
N#Cc1ccc2c(c1)CN(c1nn3c(C4CC4)nnc3c3ccccc13)CC2	IIIB		RT activity / fluorescence	1.69 µM
NS(=O)(=O)c1ccc(NC(=O)CSc2nnc(Br)n2-c2ccc(C3CC3)cc2Cl)c(Cl)c1			nucleotide incorporation / radiometric	<0.05 µM
CCN1c2ncc(CCOc3ccc(/C=C(\C)C(=O)O)c4ccccc34)cc2C(=O)Nc2c(C)cc(Cl)nc21	WT		nucleotide incorporation / radiometric	<0.1 µM
Cc1cc(C)c2ccccc2c1-n1c(SCC(=O)Nc2ccc(S(N)(=O)=O)cc2Cl)nnc1C(F)F		RT-Y181C	nucleotide incorporation / radiometric	<0.05 µM
CC(C)(C#Cc1ccc(NC(=O)CSc2nnnn2-c2cc(C(C)(C)C)ccc2Cl)c(Cl)c1)NC(=O)c1cc[n+]([O-])cc1		RT-K103 Y181C	PicoGreen / fluorescence	<1 µM
Cc1cc(S(N)(=O)=O)ccc1NC(=O)CSc1nnc(Br)n1-c1ccc(C2CC2)c2ccccc12		RT-Y188L	nucleotide incorporation / radiometric	>0.1 µM
CC(C)(N)C#Cc1ccc(NC(=O)CSc2nnnn2-c2cc(C(F)(F)F)ccc2Cl)c(Cl)c1		RT-K103 Y181C	PicoGreen / fluorescence	<1 µM
NS(=O)(=O)c1ccc(NC(=O)CSc2nnc(Br)n2-c2c(Cl)cc(C3CCC3)c3ccccc23)c(Cl)c1			nucleotide incorporation / radiometric	<0.05 µM
CCN1c2ncc(CCOc3ccc(-c4cc(C(=O)O)on4)cc3C)cc2C(=O)N(C)c2cccnc21	IIIB	RT-K103N Y181C	nucleotide incorporation / radiometric	<0.05 µM
Cc1nnc(SCC(=O)Nc2ccc(OCC(=O)N3CCC(C(=O)O)CC3)cc2Cl)n1-c1ccc(C2CC2)cc1Cl		RT-K103 Y181C	PicoGreen / fluorescence	<1 µM
CCc1ccc(-n2c(Br)nnc2SCC(=O)Nc2ccc(C(=O)NCCOC)cc2Cl)c2ccccc12		RT-Y188L	nucleotide incorporation / radiometric	<0.05 µM
Cc1ccc(-n2nnnc2SCC(=O)Nc2ccc(-c3ccc(S(N)(=O)=O)cc3)cc2[N+](=O)[O-])c(Cl)c1	WT		PicoGreen / fluorescence	<1 µM
CCc1cc(NCc2nc3c(C)ccc(C)c3o2)c(=O)[nH]c1C		RT-Y181I	nucleotide incorporation	>282 µM
CC(C)(C)c1ccc(-n2nnnc2SCC(=O)Nc2ccc(-c3ccc(/C=C/C(=O)O)cc3)cc2Cl)c(Cl)c1		RT-K103 Y181C	PicoGreen / fluorescence	<1 µM
c1ccc(-c2nnc3c4ccccc4c(N4CCc5ccccc5C4)nn23)cc1	KER2008		RT activity / fluorescence	48.2 µM
O=C(CSc1nnnn1-c1cc(C(F)(F)F)ccc1Cl)Nc1ccc(-c2ccc(OCCN3CCCCC3)cc2)c(F)c1Cl	WT		PicoGreen / fluorescence	<1 µM
COc1ccc2c(C)ccc(-n3c(Br)nnc3SCC(=O)Nc3ccc(C(=O)O)cc3Cl)c2c1		RT-Y188L	nucleotide incorporation / radiometric	<0.05 µM
CC(C)(C)c1ccc(-n2nnnc2SCC(=O)Nc2ccc(OCC(=O)NCCc3ccncc3)cc2Cl)c(Cl)c1	WT		PicoGreen / fluorescence	<1 µM
Cc1cc(S(N)(=O)=O)ccc1NC(=O)CSc1nnc(Br)n1-c1ccc(C2CCC2)c2ccccc12			nucleotide incorporation / radiometric	<0.05 µM
CC(C)(C#Cc1ccc(NC(=O)CSc2nnnn2-c2ccc(C3CC3)cc2Cl)c(Cl)c1)NC(=O)CNCCCn1ccnc1		RT-K103 Y181C	PicoGreen / fluorescence	<1 µM
CCc1ccc(-n2c(Br)nnc2SCC(=O)Nc2ccc(C(=O)NCC3CCCO3)cc2Cl)c2ccccc12		RT-Y181C	nucleotide incorporation / radiometric	0.05–0.1 µM
CCN1c2ncc(CCOc3ccc(C(=O)O)c4c3CCN(S(C)(=O)=O)C4)cc2C(=O)N(C)c2cccnc21	WT		nucleotide incorporation / radiometric	<0.1 µM
Cc1ccc(-c2ncsc2SCC(=O)Nc2ccc(-c3ccc(CC(=O)O)cc3)cc2Cl)c(Cl)c1	WT		PicoGreen / fluorescence	<1 µM
CCCc1ccc(-n2c(Br)nnc2SCC(=O)Nc2ccc(S(N)(=O)=O)cc2C)c2ccccc12		RT-Y181C	nucleotide incorporation / radiometric	<0.05 µM